From PMC3878761, “Interactions of peptide triazole thiols with Env gp120 induce irreversible breakdown and inactivation of HIV-1 virions” (Retrovirology, 2013)

What was measured:
[1] = target: HIV-1 R3A Env gp41 on pseudovirions (HIV-1 R3A)
[2] = tested on: HIV-1 R3A pseudovirus; details: read-out: IC50, infection inhibition, R3A, HOS CD4^+ve CCR5^+ve cells, Figure S9, ± SD, n = 3
[3] = tested on: HIV-1 R3A V38A pseudovirus; details: read-out: IC50, infection inhibition, R3A V38A; R3A V38A pseudovirus (T20 resistant), HOS CD4^+ve CCR5^+ve cells, Figure S9; ± SD, n = 3

enfuvirtide (T20) (peptide)
inhibition by T20 of KR13-induced p24 release from HIV-1 R3A pseudovirus, IC50 [1]: 0.0059 µM

enfuvirtide
IC50 [2]: 0.171 ± 0.0459 µM
IC50 [3]: 3.3 ± 0.2 µM
